# This is a selection; strong and weak results do not stand in their true shares. Calls of active or inactive are those of the source.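 Rule for the calls: active = inhibition above the campaign's mean inhibition across all tested compounds plus 3 SD (cut at about 9.9% in these data); inactive = the rest.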
# Test: bacterial viability reduction in E. coli – absorbance, OD600, counter-screen for AddAB inhibitor project, primary screen (AID 449728);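 note: uninfected addAB+ strain grown without phage in ampicillin broth; 0% = DMSO wells and 100% = ciprofloxacin 0.95 µg/ml wells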
# Settings: E. coli V3065 growth, 18 h, at 11.9 µM, stronger effect = higher value
row,Compound,inhibition
1,COc1ccc(N/C(=N/P(=O)(N2CCOCC2)N2CCOCC2)N2CCOCC2)cc1,inactive: 1.34%
2,COc1cc(I)ccc1[As](=O)(O)O,inactive: -1.97%
3,COc1ccc2nc(NP(=O)(c3ccccc3)c3ccccc3)sc2c1,inactive: -2.39%
4,Cc1c2c(nc3ccccc13)SC(C(Cl)Cl)C2 (configuration not stated),inactive: -0.95%
5,Cc1cc(=O)[nH]c(N[N+](=O)[O-])n1,inactive: 0.95%
6,O=C(OC1CN2CCC1CC2)C12CC3CC(CC(C3)C1)C2 (configuration not stated),inactive: 0.27%
7,O=[N+]([O-])c1cc([N+](=O)[O-])c(-c2ccn[nH]2)s1,active: 25.8%
8,CC(C)NC(=O)NP(=O)(Oc1ccccc1)Oc1ccccc1,inactive: -0.27%
9,CCN(CC)C(=S)SC(NC=O)C(Cl)(Cl)Cl (configuration not stated),inactive: 1.1%
10,ClCCSc1nnc(-c2cccnc2)o1,inactive: 0.63%
11,CC(C)c1ccc(OP(=O)(Nc2ccccn2)Oc2ccccc2F)cc1 (configuration not stated),inactive: 2.04%
12,Cc1ccc(OP(=O)(Nc2ccc([N+](=O)[O-])cn2)Oc2ccc(C)cc2)cc1,inactive: 0%
13,Cc1ccc2nc3c(c(C)c2c1)CC(C(Cl)Cl)S3 (configuration not stated),inactive: 0.09%
14,COc1cc(C(=O)NCC2(N3CCOCC3)CCCCC2)ccc1OCC(C)C,inactive: -1.59%
15,C[As](=O)(O)c1cccc(C(=O)O)c1,inactive: -0.63%
16,O=[As](O)(c1ccc(O)cc1)c1ccccc1O,inactive: -1.8%
17,Cc1cc(SC(NC=O)C(Cl)(Cl)Cl)ncn1 (configuration not stated),inactive: -0.77%
18,O=P(Nc1ccccn1)(c1cccc2ccccc12)c1cccc2ccccc12,inactive: -0.09%
19,CCOC(=O)Nc1cccc([As](=O)(O)O)c1,inactive: 2.57%
20,Cc1cc(SC(NC(=O)c2ccccc2)C(Cl)(Cl)Cl)nc(C(C)C)n1 (configuration not stated),inactive: -1.72%
21,CCOC(=O)Nc1ccc([As](=O)(O)O)c(O)c1,inactive: 2.49%
22,CCC(C)N(CC(C)C)C(=S)SC(NC(C)=O)C(Cl)(Cl)Cl (configuration not stated),active: 13.5%
23,O=C(OC1CN2CCC1CC2)c1cccc([N+](=O)[O-])c1 (configuration not stated),inactive: 1%
24,CCOC(=O)c1ccc(NC(=O)C(C)(CCl)SC)cc1 (configuration not stated),inactive: -1.37%
25,O=C(Nc1ccncc1[N+](=O)[O-])c1ccc([N+](=O)[O-])cc1[N+](=O)[O-],inactive: -1.36%
26,O=C(COc1ccccc1)OC1CN2CCC1CC2 (configuration not stated),inactive: 3.64%

row,Compound,inhibition
1,COP1(=S)c2c(C)nn(CCC#N)c2N=C(c2ccc(F)cc2)N1C (configuration not stated),inactive: -0.74%
2,CN(C(=O)Cc1ccc(Cl)c(Cl)c1)[C@@H]1CCCC[C@H]1N1CCCC1,inactive: 0.17%
3,CC(C)/C=N\N=C(\N)N[N+](=O)[O-],inactive: -5.45%
4,CC1(CBr)Cn2c(nc3ccccc3c2=O)S1 (configuration not stated),inactive: -1.1%
5,O=[As](O)(c1ccccc1Br)c1ccccc1Br,inactive: 0.55%
6,COc1ccccc1CNC(=O)COC(=O)C(O)(c1ccccc1)c1ccccc1,inactive: -0.08%
7,CC(C)(C)C(=O)NC(Sc1ncccn1)C(Cl)(Cl)Cl (configuration not stated),inactive: -1.36%
8,Clc1n[nH]nc1-c1nn[nH][15n]1,inactive: -1.68%
9,CCOP(=O)(NC(=NC(C)c1ccccc1)NC(C)c1ccccc1)OCC (configuration not stated),inactive: -1.27%
10,CCC1=CC2Cc3nc4ccc(Cl)cc4c(N)c3C(C1)C2 (configuration not stated),inactive: 3.1%
11,O=P1(Nc2ccccn2)COc2ccccc2OC1,inactive: -1.46%
12,CCOP(=O)(Nc1ccc(C)cn1)OCC,inactive: 0.27%
13,CN(CCCl)Cc1cc(Cl)c(NC2=NCCN2)c(Cl)c1,inactive: -0.61%
14,Nc1cccc([As](=O)(O)c2ccccc2)c1,inactive: -0.26%
15,Cc1ccc(OCC(=O)OC2CN3CCC2CC3)cc1 (configuration not stated),inactive: -0.09%
16,O=[As](O)(c1cccs1)c1cccs1,inactive: 2.36%
17,NS(=O)(=O)c1cccc(NC(=O)COC(=O)C(O)(c2ccccc2)c2ccccc2)c1,inactive: -1.51%
18,O=P1(Nc2ccc(Br)cn2)COc2ccccc2OC1,inactive: -2.25%
19,O=P1(Nc2ncccn2)COc2ccccc2OC1,inactive: 1.92%
20,CN(C)C1(CNC(=O)c2ccc(S(C)(=O)=O)cc2)CCCCC1,inactive: 1.09%
21,O=C(/C=C/c1ccccc1)OC1CN2CCC1CC2 (configuration not stated),inactive: 0.65%
22,Cc1ccc(C(=O)OC2CN3CCC2CC3)cc1 (configuration not stated),inactive: -2.32%
23,CC1CCC(C(C)C)C(OP(=O)(Nc2ccccn2)c2ccccc2)C1 (configuration not stated),inactive: 1.95%
24,Cc1nn(-c2ccccc2)c2c1P(=O)(N1CCOCC1)N(C)C(c1ccccc1)=N2 (configuration not stated),inactive: 3.19%
25,CN(C(=O)Cc1ccccc1)[C@@H]1CC[C@]2(CCCO2)C[C@H]1N1CCCC1,inactive: 0.17%
26,CCOP1(=S)c2c(C)nn(CCC#N)c2N=C(c2ccc(F)cc2)N1C (configuration not stated),inactive: 0%

row,Compound,inhibition
1,N#CCCN(C(=O)COC(=O)C(O)(c1ccccc1)c1ccccc1)c1ccc(F)cc1,inactive: -3.04%
2,CN(C(=O)Cc1ccc(Cl)c(Cl)c1)[C@H]1CC[C@@]2(CCCO2)C[C@@H]1N1CCCC1,inactive: 3.27%
3,O=[N+]([O-])c1ccc2c(c1)nnn2O,inactive: -1.16%
4,CN(C)C(=O)c1cc([N+](=O)[O-])cc2c1-c1c(cc([N+](=O)[O-])cc1[N+](=O)[O-])C2=O,inactive: 0.33%
5,NC(=O)Nc1ccc([As](=O)(O)O)cc1,inactive: 1.56%
6,O=C(O)COc1ccc([As](=O)(O)O)cc1[N+](=O)[O-],inactive: -1.08%
7,Nc1ccccc1[As](=O)(O)c1ccccc1,inactive: -0.6%
8,O=P(Nc1nccs1)(Oc1ccccc1)Oc1ccccc1,inactive: -0.7%
9,O=P(Nc1nccs1)(c1ccccc1)c1nc2ccccc2s1 (configuration not stated),active: 12.6%
10,CCOP1(=S)c2c(C)nn(CCC#N)c2N=C(c2ccccc2F)N1C (configuration not stated),inactive: 0.58%
11,CS(=O)(=O)c1cc([N+](=O)[O-])c2no[n+]([O-])c2c1,inactive: 2.55%
12,CCOP(=O)(Nc1cccc2ccccc12)OCC,inactive: 3.49%
13,COc1cc(C2NCCC3(OCCO3)C2(C)C)cc(OC)c1OC (configuration not stated),inactive: 1.21%
14,Cc1ccc(NCCc2c([N+](=O)[O-])cc([N+](=O)[O-])cc2[N+](=O)[O-])cc1,inactive: -2.01%
15,Nc1cccc2c([As](=O)(O)O)cccc12,inactive: -1.51%
16,CCCOP(=S)(Nc1nc(N)cc(=O)[nH]1)OCCC,inactive: -1.08%
17,Cc1cccc(OCC(=O)OC2CN3CCC2CC3)c1 (configuration not stated),inactive: 0.55%
18,O=[As](O)(c1cccc(O)c1)c1cccc(O)c1,inactive: 1.63%
19,O=C(OC1CN2CCC1CC2)c1ccc(Cl)cc1 (configuration not stated),inactive: -0.49%
20,CS(=O)(=O)c1ccc(Cl)c(NC(=O)COC(=O)C(O)(c2ccccc2)c2ccccc2)c1,inactive: 1.77%
21,O=[As](O)(O)c1cccnc1,inactive: 0.77%
22,COc1cc(C(=O)NCC2(N3CCOCC3)CCCCC2)cc(Cl)c1OC(C)C,inactive: -2.94%
23,CC(=O)Nc1ccc(Oc2c([N+](=O)[O-])cc([N+](=O)[O-])cc2[N+](=O)[O-])cc1,inactive: -1.01%
24,CC(=O)Nc1ccc([As](=O)(O)O)c(O)c1,inactive: -2.43%
25,C[C@H]1OP(=O)(Oc2ccccc2)C[C@@H]2O[C@@H]21 (some centres not stated),inactive: 0.17%
26,C[C@@H]1C=CCP(=O)(Oc2ccccc2)O1 (some centres not stated),inactive: 0.51%

row,Compound,inhibition
1,Cc1ccccc1CN(C)C(=O)COC(=O)C(O)(c1ccccc1)c1ccccc1,inactive: -1.69%
2,CC(=O)c1ccc(N2CC2c2ccncc2)cc1 (configuration not stated),inactive: -1.16%
3,CC(C)(C)C(=O)NC(Sc1ccccc1)C(Cl)(Cl)Cl (configuration not stated),inactive: 1.86%
4,CCOc1ccc(C2=NCC(CBr)S2)cc1 (configuration not stated),inactive: 1.36%
5,O=P1(Nc2nc3ccc(Cl)cc3s2)COc2ccccc2O1 (configuration not stated),inactive: 0.36%
6,CN(C)C(=O)Oc1noc2ccccc12,inactive: -0.32%
7,CC(NC(=O)COC(=O)C(O)(c1ccccc1)c1ccccc1)c1ccccc1 (configuration not stated),inactive: -0.98%
8,Cc1ccccc1OP(=O)(Nc1ccccn1)Oc1ccccc1C,inactive: -1.88%
9,CCC(=O)N1C2C3N(C(=O)CC)C1C1N(C(=O)CC)C(C(N1C(=O)CC)N3C(=O)CC)N2C(=O)CC,inactive: 0%
10,O=C(OC1CN2CCC1CC2)c1ccccc1 (configuration not stated),inactive: -0.55%
11,CC(=O)NC(SC(=S)N(CC(C)C)CC(C)C)C(Cl)(Cl)Cl (configuration not stated),inactive: 9.31%
12,Cc1ccc(OP(=O)(Nc2ccccn2)Oc2ccc(C)cc2)cc1,inactive: 1%
13,COC(=O)c1cc2c(s1)N=C(c1ccccc1)N(C)P2(=O)N1CCOCC1 (configuration not stated),inactive: 4.71%
14,Cc1ccc(NP(=O)(Oc2cccc(C)c2)Oc2cccc(C)c2)nc1,inactive: 5.2%
15,CCOC(=O)NC(Sc1ccccc1)C(Cl)(Cl)Cl (configuration not stated),inactive: -0.82%
16,c1ccc(-c2nn[nH]n2)c(-c2nn[nH]n2)c1,inactive: 2.83%
17,O=C(NC1CCS(=O)(=O)C1)NP(=S)(Oc1ccccc1)Oc1ccccc1 (configuration not stated),inactive: 0.37%
18,CCNC(=S)/N=C(\N)N[N+](=O)[O-],inactive: 1.35%
19,O=C(OC1CN2CCC1CC2)c1cccc(Cl)c1 (configuration not stated),inactive: 0.5%
20,C(Cc1nn[nH]n1)Cc1nn[nH]n1,inactive: 1.2%
21,Nc1ccc([As](=O)(O)c2ccc([N+](=O)[O-])cc2)cc1,inactive: 0.66%
22,O=[As](O)(c1ccccc1)c1ccc(O)cc1,inactive: -0.43%
23,CC(=O)NC(SC(=S)N(C)C)C(Cl)(Cl)Cl (configuration not stated),inactive: -0.33%
24,O=[N+]([O-])c1ncn(CCn2cnc([N+](=O)[O-])n2)n1,inactive: 2.84%

# Reference: PubChem BioAssay AID449728 (The Scripps Research Institute Molecular Screening Center, 2010)
